According to ChEMBL document CHEMBL3286128 (J Med Chem, 2014):

Molecular target: Human immunodeficiency virus type 1 integrase (Human immunodeficiency virus 1, UniProt Q7ZJM1)
Test: Inhibition of strand transfer activity of HIV-1 integrase using [gamma-32P]-labeled DNA as substrate
How it was run: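 Gel-based assay with radiolabelled oligonucleotide substrate and Mg2+ cofactor, measuring strand transfer by recombinant HIV-1 integrase. IC50 determined.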

| Compound | IC50 [nM] |
| --- | --- |
| COC(=O)[C@H](C)Nc1c(C(=O)NCc2ccc(F)cc2F)c(=O)n(O)c2ncccc12 | 17 |
| COC(=O)[C@@H](Nc1c(C(=O)NCc2ccc(F)cc2F)c(=O)n(O)c2ncccc12)c1ccccc1 | 10 |
